Source: PMC3935945, “Insight into Highly Conserved H1 Subtype-Specific Epitopes in Influenza Virus Hemagglutinin” (PLoS ONE, 2014)

Biological target: T1, HA from A/Brevig Mission/1/1918(H1N1) (influenza A virus A/Brevig …, UniProt Q9WFX3)
T1 construct: also called 1918 pdm HA
Assay: ELISA

B1: H1-specific monoclonal antibody GC0757 (antibody, V domains shown)
VH: VKLQESGAVVQPGGSLRLSCAASGFTGSDYDMSWIRQAPGKGLEWVSGILGGSERSYYRDSVKGRSTISRDNSRKTLYLEMNSLRAEDTAVYYCARHSWGAYVQYGMDGWGQGTTVTVSS
VL: DIQMTQSPASLAVSPGQRATITCRASESVSNYGINFINWFQQKPGQPPKLLIYTASNKGTGVPARFSGSGSGTDFTLTINPVEAEDTANYFCQQTKEVPYGTFGGTKLEIK
notes: copies: 2 + 2
Does B1 bind?
Result: binds
